Target: HLA-A2 (human)

Substance: HIV-1 pol476-484 (peptide)
- C50: 0.7 µM
